A mixed list of measured activities; the numbers were collected in NIAID ChemDB.

All rows: growth or infection tests; organism: Hepatitis C virus; method: PCR; measure: EC50

ECn: concentration that inhibits the pathogen or its effect by n%.

OCc1ccn2cc(-c3cn(Cc4cc(Cl)c(Cl)c(Cl)c4)nn3)nc2c1 ; strain: GT1a ; cells: Huh7 ; value: 0.025 µM
Cc1ccc2nc(Nc3cc(O)cc([N+](=O)[O-])c3)sc2c1 ; strain: Con1 ; cells: Huh7 ; value: 10 µM
C=CCN1c2ccccc2[C@]23CC(=O)N(Cc4ccccc4)C2=NC(C(=O)OC)=C(C(=O)OC)C13 ; cells: Huh7.5 ; value: 3.2 µM
CCc1cc2c(cc1F)c(C#N)c(-c1ccc(S(=O)(=O)N[C@@H](C)C(F)(F)F)cn1)n2-c1ncccn1 ; strain: 1b ; value: 0.0017 µM
CCOc1nc(N)nc2c1ncn2[C@@H]1O[C@@H]2COP(=O)(OC(C)C)O[C@H]2[C@@]1(C)F ; strain: 1b ; cells: Lunet ; value: 0.13 µM
CC1(C)CCc2c(C(=O)Oc3ccc(I)cc3)c(O)c3ccccc3c2O1 ; strain: GT1b ; cells: Huh7 ; value: 5 µg/mL
Cc1ccc2nc(Nc3ccc([N+](=O)[O-])cc3)sc2c1 ; strain: Con1 ; cells: Huh7 ; value: 25 µM
CC1(C)CCc2c(C(=O)Oc3ccc([N+](=O)[O-])cc3)c(O)c3ccccc3c2O1 ; strain: GT1b ; cells: Huh7 ; value: 7 µg/mL
Cc1cccc(Nc2nc3ccc(C)cc3s2)c1 ; strain: Con1 ; cells: Huh7 ; value: >200 µM
CC(=O)c1ccc(F)c(CN2c3cc(F)c4ccoc4c3C(c3ccc[nH]c3=O)C2C(=O)O)c1 ; cells: Replicon cells ; value: 0.07 µM
CCCCn1c(=O)c2ccccc2c2cc(C(O)(C(F)(F)F)C(F)(F)F)c3c(c21)OCO3 ; strain: 1b ; cells: LucNeo2 cells ; value: 0.68 µM
O=C(O)C1C(c2ccc[nH]c2=O)c2c(cc(F)c3ccoc23)N1Cc1cc2c(=O)[nH]c(=O)[nH]c2cc1F ; cells: Replicon cells ; value: 0.006 µM
Cc1ccc2nc(Nc3cccc([N+](=O)[O-])c3)sc2c1 ; strain: Con1 ; cells: Huh7 ; value: 8 µM
CC(=O)Oc1c(C(=O)OCc2ccccc2)c2c(c3ccccc13)OC(C)(C)CC2 ; strain: GT1b ; cells: Huh7 ; value: 0.5–1 µg/mL
O=C(O)C1C(c2ccc[nH]c2=O)c2c(cc(F)c3ccoc23)N1Cc1cc2[nH]c(=O)oc2cc1F ; cells: Replicon cells ; value: 2 µM
COc1ccc(N(Cc2c(Cl)cccc2Cl)S(=O)(=O)c2cccc(C#N)c2)cc1C(=O)O ; strain: 1b ; cells: Huh 5-2 ; value: 1.3 µM
COc1ccc(-c2nc3ccc(NCc4ccc(Cl)c(C(F)(F)F)c4)cc3n(CCNC(C)=O)c2=O)cc1 ; setting: 50% human serum ; strain: GT1b ; cells: Huh7 ; value: >40 µM
COC(=O)c1c2c(c3ccccc3c1OC(C)=O)OC(C)(C)CC2 ; strain: GT1b ; cells: Huh7 ; value: 2–4 µg/mL
Nc1nc2cc(F)c(CN3c4cc(F)c5ccoc5c4C(c4ccc[nH]c4=O)C3C(=O)O)cc2c(=O)[nH]1 ; cells: Replicon cells ; value: 0.007 µM
CC1(C)CCc2c(C(=O)OCc3ccccc3)c(O)c3ccccc3c2O1 ; strain: GT1b ; cells: Huh7 ; value: 0.5–1 µg/mL
O=C(O)c1ccc(F)c(CN2c3cc(F)c4ccoc4c3C(c3ccc[nH]c3=O)C2C(=O)O)c1 ; cells: Replicon cells ; value: 0.7 µM
CC1(C)CCc2c(C(=O)OCc3ccc([N+](=O)[O-])cc3)c(O)c3ccccc3c2O1 ; strain: GT1b ; cells: Huh7 ; value: 0.5–0.8 µg/mL
COC(=O)C1=C(C(=O)OC)C2N(C)c3ccc(OC)cc3[C@@]23C[C@@H](C(=O)OC)N(C(=O)CC(C)C)C3=N1 ; cells: Huh7.5 ; value: 8.8 µM

2 of the rows above, restated:

smiles	setting	strain	cells	value
O=C(O)c1ccc(F)c(CN2c3cc(F)c4ccoc4c3C(c3ccc[nH]c3=O)C2C(=O)O)c1			Replicon cells	0.7 µM
CCc1cc2c(cc1F)c(C#N)c(-c1ccc(S(=O)(=O)N[C@@H](C)C(F)(F)F)cn1)n2-c1ncccn1		1b		0.0017 µM

Blank or dashed fields: not listed here. Rows are shuffled and stem from different studies. Two numbers with a dash give a range or band.